Measurements: PMC3198402 (PLoS ONE, 2011)

Experiments:
[1] = target: B*3501 (Homo sapiens, UniProt P01889, A329T/A93T/A95T/C349S/D201E/D98Y/E176V/E187L/E204Q/E69T/I218V/K202T/L119I/Q94N/R155S/R180L/S121R/S35A/S48A/T118I/V127L/V306I/V36M/Y140S/Y91F); test: biochemical; type: binding
[2] = target: HLA-A*02:01 (Homo sapiens, UniProt P04439, D140Y/D185E/D98H/E176V/E277Q/G131W/G231S/I119V/I121R/I166T/I218V/L300P/L318F/N151K/N90K/P208A/P217A/Q86G/Q94H/R138H/R169H/T345S); test: biochemical; type: binding

| Compound | Kd [1] | Kd [2] |
| --- | --- | --- |
| CSCC[C@H](NC(=O)[C@H](CC(C)C)NC(=O)[C@H](CO)NC(=O)[C@H](Cc1c[nH]c2ccccc12)NC(=O)[C@H](CCSC)NC(=O)[C@H](CCC(N)=O)NC(=O)[C@H](C)NC(=O)[C@@H](N)Cc1ccc(O)cc1)C(=O)N[C@@H](Cc1ccc(O)cc1)C(=O)O [Peptide 14585] | 1 nM |  |
| CC(C)C[C@H](NC(=O)[C@H](Cc1c[nH]c2ccccc12)NC(=O)CNC(=O)[C@H](C)NC(=O)[C@H](CC(C)C)NC(=O)[C@@H](N)C(C)C)C(=O)N[C@@H](Cc1ccccc1)C(=O)N[C@@H](Cc1c[nH]cn1)C(=O)N[C@H](C(=O)O)C(C)C [Peptide 15879] |  | 1 nM |
